According to paper PMC4201977 (Journal of immunology (Baltimore, Md. : 1950), 2014):

Conditions: 2 nmol 13-QY9-6 in 45μg monocyte extract, in 10 minutes, mass spectrometry

Compound: CSCC[C@H](NC(=O)[C@@H]1CCCN1C(=O)[C@H](CCCNC(=N)N)NC(=O)[C@H](CC(C)C)NC(=O)[C@@H]1CCCN1C(=O)[C@@H](NC(=O)[C@H](CCC(N)=O)NC(=O)[C@@H]1CCCN1C(=O)[C@@H](NC(=O)[C@@H](NC(=O)[C@@H]1CCCN1C(=O)[C@H](Cc1ccccc1)NC(=O)CNC(=O)[C@@H](NC(=O)[C@H](CCC(=O)O)NC(=O)[C@H](CCC(=O)O)NC(=O)[C@H](CCC(=O)O)NC(=O)[C@H](CCC(=O)O)NC(=O)[C@H](CCC(N)=O)NC(=O)[C@H](C)N)C(C)C)C(C)C)[C@@H](C)O)C(C)C)C(=O)N[C@H](C(=O)N[C@@H](Cc1ccc(O)cc1)C(=O)N[C@@H](CCCCN)C(=O)N[C@@H](C)C(=O)N[C@@H](C)C(=O)N[C@H](C(=O)N[C@@H](CC(=O)O)C(=O)N[C@@H](CC(C)C)C(=O)O)C(C)C)[C@@H](C)O [13-QY9-6]
- yield of 8-25aa peptides (share of degradation products): 60%
